Results from US9610264B2, “Compounds for the treatment and prevention of retroviral infections” (KFLP Biotech, LLC, priority 2012, dated 2017).

Sequences of proteins named here, by UniProt entry; tags and fusion partners are left off. Residues count along the entry.
UniProt P13612, 34-1032 limits assumed: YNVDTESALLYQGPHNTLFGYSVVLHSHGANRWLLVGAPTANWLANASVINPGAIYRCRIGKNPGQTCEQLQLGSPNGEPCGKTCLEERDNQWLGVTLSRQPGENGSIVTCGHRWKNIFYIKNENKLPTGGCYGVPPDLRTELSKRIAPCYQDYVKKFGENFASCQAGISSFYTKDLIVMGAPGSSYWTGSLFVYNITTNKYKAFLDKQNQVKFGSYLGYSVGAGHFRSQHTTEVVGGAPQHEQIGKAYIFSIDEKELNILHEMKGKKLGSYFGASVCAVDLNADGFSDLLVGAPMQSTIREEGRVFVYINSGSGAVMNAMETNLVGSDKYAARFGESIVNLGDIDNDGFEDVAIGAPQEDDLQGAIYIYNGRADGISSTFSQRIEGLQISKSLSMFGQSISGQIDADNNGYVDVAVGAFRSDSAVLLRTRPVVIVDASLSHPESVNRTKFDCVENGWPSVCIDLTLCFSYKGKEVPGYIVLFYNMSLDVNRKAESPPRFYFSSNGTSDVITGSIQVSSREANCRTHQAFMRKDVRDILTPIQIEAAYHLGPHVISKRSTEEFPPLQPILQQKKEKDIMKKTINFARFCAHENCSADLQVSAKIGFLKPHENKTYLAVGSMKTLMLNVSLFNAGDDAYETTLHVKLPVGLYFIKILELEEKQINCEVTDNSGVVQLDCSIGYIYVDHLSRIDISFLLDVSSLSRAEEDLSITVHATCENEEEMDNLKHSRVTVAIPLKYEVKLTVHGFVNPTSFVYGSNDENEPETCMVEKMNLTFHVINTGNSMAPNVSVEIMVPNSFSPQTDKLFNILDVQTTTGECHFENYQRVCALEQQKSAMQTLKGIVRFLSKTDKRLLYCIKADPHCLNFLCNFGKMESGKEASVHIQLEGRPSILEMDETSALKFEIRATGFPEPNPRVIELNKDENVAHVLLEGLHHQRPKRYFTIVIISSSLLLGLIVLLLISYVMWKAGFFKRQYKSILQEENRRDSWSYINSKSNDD
UniProt P26010, 20-798 limits assumed: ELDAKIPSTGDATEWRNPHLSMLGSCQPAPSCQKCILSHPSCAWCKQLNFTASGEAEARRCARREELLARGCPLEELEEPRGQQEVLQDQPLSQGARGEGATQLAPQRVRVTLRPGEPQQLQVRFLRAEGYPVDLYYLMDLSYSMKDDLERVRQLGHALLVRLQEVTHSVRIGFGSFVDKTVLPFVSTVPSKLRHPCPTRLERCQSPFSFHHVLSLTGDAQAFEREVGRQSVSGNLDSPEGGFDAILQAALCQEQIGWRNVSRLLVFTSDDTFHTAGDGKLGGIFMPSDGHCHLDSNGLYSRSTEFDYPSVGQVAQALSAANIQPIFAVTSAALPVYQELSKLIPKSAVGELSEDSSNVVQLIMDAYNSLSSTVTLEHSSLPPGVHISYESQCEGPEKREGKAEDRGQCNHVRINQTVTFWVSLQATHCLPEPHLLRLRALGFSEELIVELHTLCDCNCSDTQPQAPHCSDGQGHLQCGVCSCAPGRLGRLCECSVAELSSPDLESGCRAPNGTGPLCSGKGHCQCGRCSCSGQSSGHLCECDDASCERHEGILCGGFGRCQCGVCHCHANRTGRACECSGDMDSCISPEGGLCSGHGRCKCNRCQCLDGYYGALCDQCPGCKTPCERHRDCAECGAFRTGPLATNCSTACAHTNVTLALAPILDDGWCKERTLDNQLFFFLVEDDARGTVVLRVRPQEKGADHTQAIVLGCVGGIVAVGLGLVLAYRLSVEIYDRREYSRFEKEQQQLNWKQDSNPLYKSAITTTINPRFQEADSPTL

Target: binding of HIV associated glycoprotein gp120 and the integrin α4β7 (Homo sapiens (Human), UniProt P13612+P26010)
Test: ELISA assay of gp120 binding to integrin α4β7
Conditions: read-out: IC50 a4b7, inhibition of gp120/α4β7 binding, triplicate with two anti-gp120 antibodies
From the text: A sandwich assay was developed to screen for compounds that inhibit the binding of a4b7 to gp120. Without inhibitors, gp120 and a4b7 bind and this complex can be identified by addition of a mouse anti-gp120 mAb (step 3). This a4b7*gp120anti-gp120 mAb complex is then sequestered on the bottom surface of a 96 welled-plate coated with an anti-mouse secondary mAb (step 4). The complex is then detected by addition of a biotinylated primary mAb against a4b7 (step 5) and detected using an HRP-avidin (step 6). A positive binding event is identified by the presence of HPR activity within each well. The addition of an inhibitor (step 2) blocks the binding between gp120 and a4b7 leading to a lack or reduction of HRP activity as shown in steps 2-5 at the bottom of the figure.
Step 1: Prepare the antigen plate • a. Prepare a PBS stock solution containing 1 μM gp120 and 1 μM α4β7 • b. Add a 200 μL aliquot to each well of the antigen plate.
Step 2: Add the inhibitor. • a. Add 20 μL of a 10× stock of the inhibitor in PBS pH 7.2 containing 1% DMSO • b. Incubate at 4° C. for 6 h with shaking. This delivers the antigen plate.
Step 3: Prepare the binding plate. • a. Aspirate each well of the binding plate • b. Wash three times with 200 μL of wash buffer (PBS pH 7.2, containing 0.05% Tween 20). • c. Add 100 μL of a 0.5 μg/mL stock of the mouse anti-gp120 mAb in PBS pH 7.2 • d. Shake for 1 h at 23° C.
Step 4: Sequester the gp120*α4β7 complex. • a. Aspirate each well of the binding plate. • b. Wash three times with 200 μL of wash buffer. • c. Transfer the contents of the antigen plate to the corresponding wells in the binding plate. • d. Shake for 1 h at 23° C.
Step 5: Develop the binding plate. • a. Aspirate each well of the binding plate. • b. Wash three times with 200 μL of wash buffer. • c. Add 100 μL of a 0.1 μg/mL of the rat anti-α4β7 mAb. • d. Shake for 1 h at 37° C. • e. Aspirate each well of the binding plate. • f. Wash three times with 200 μL of wash buffer. • g. Add 100 μL of 0.2 μg/mL solution of the HRP-conjugated strepavidin • h. Shake for 1 h at 37° C. • i. Aspirate each well of the binding plate. • j. Wash three times with 200 μL of wash buffer. • k. Develop using QuantaBlu fluorogenic peroxidase substrate (ThermoScientific) • l. Evaluate the fluorescence output on a HTS7000 plate reader (Perkin Elmer).
The ELISA assay was applied to screen the compounds in the table, below, to further characterize their activity against the binding of HIV associated glycoprotein gp120 and the integrin α4β7.
The five-step assay developed was applied to screen the compounds in the table below. […] The experiments were run in triplicate using two antibodies against gp120.

For Cc1ccc(CNC(=O)c2ccccc2NC(=O)CN2CCc3ccccc3C2)cc1, the IC50 was 1.64 nM.

Compound CCOC(=O)N1CCN(CC(=O)Nc2ccccc2C(=O)NCc2ccccc2)CC1 has an IC50 of 2.64 nM.

Work on CC(C)C(=O)Nc1cccc(C(=O)Nc2ccccc2C(=O)NCc2ccccc2)c1 yielded an IC50 of 0.98 nM.

In the case of CC(NC(=O)c1ccccc1NC(=O)CN1CCN(Cc2ccccn2)CC1)c1ccccc1 (stereo not shown), the IC50 is reported as 4.67 nM.
